# Measured values taken from US20210386505A1, “BACTERIAL BIOFILM STAINING DEVICE AND METHODS OF USE” (University of Utah Research Foundation, priority 2020, published 2021).
# Test system: healthy sheep tissues
# Assay: MB staining of healthy sheep tissues in vitro (photography, red channel analysis)
smiles,measurement,setting,value
"CN(C)c1ccc2nc3ccc(=[N+](C)C)cc-3sc2c1 [MB, methylene blue]",staining of tissue,articular cartilage,significant staining
same,staining of tissue,bone,did not display appreciable staining
same,staining of tissue,fat,did not display appreciable staining
same,staining of tissue,meniscus,significant staining
same,staining of tissue,muscle,did not display appreciable staining
same,staining of tissue,nerve,did not display appreciable staining
same,staining of tissue,tendon,did not display appreciable staining
